Data as given in PubChem BioAssay AID1259414 (Drosophila RNAi Screening Center, 2018)
In all, the deposit lists about 24,000 reagents; shown is a random part of those with a known target gene and a result. Of all reagents, about 1,210 (5%) got an active call. 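Inactive calls also include excluded dsRNAs with several or no targets, genes unexpressed in JW18, and well A1, regardless of score.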 Entries without a mark were called inactive.

- Screen: 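Genome-wide screen for host control of endosymbiont load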 (primary screen)
- Cell system: Drosophila JW18 cells infected with Wolbachia
- Knock-down reagent: long dsRNA against Drosophila genes, 0.25 µg dsRNA per well of a 384-well plate
- Duration: 5 days
- Conditions: cells persistently infected with Wolbachia before knock-down; no added drug
- Measurement: 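Imaged fluorescence in situ signal for Wolbachia 23S rRNA per DAPI-counted host cell, given as a robust z-score within each plate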
- Reading the numbers: Wolbachia per cell robust z: higher = more Wolbachia per host cell than the plate typical
- Call rule: 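Active if absolute robust z reaches 1.5 in two or more of three replicates, leaving out multi- or no-target dsRNAs, genes unexpressed in JW18 and A1 wells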

With Rel [DRSC16819], what was measured?
Wolbachia per cell robust z, rep 1: 0.43; Wolbachia per cell robust z, rep 2: 0.558; Wolbachia per cell robust z, rep 3: -0.355

What did the screen give for Rel [DRSC40716]?
Wolbachia per cell robust z, rep 1: -0.679; Wolbachia per cell robust z, rep 2: 0.0332; Wolbachia per cell robust z, rep 3: -0.103

How did the screen score Hrs [DRSC00549]?
Wolbachia per cell robust z, rep 1: -0.187; Wolbachia per cell robust z, rep 2: 0.0944; Wolbachia per cell robust z, rep 3: 0.0238

What is on record for Hrs [DRSC27741]?
Wolbachia per cell robust z, rep 1: 0.85; Wolbachia per cell robust z, rep 2: -0.00125; Wolbachia per cell robust z, rep 3: -0.119

How did the screen score CG30389 [DRSC04077]?
Wolbachia per cell robust z, rep 1: -1.73 (active); Wolbachia per cell robust z, rep 2: -0.12; Wolbachia per cell robust z, rep 3: -5.76

How did the screen score CG30389 [DRSC04452]?
Wolbachia per cell robust z, rep 1: -1.15; Wolbachia per cell robust z, rep 2: 0.334; Wolbachia per cell robust z, rep 3: 0.272

With CG30389 [DRSC26370], what does the deposit list?
Wolbachia per cell robust z, rep 1: -0.176; Wolbachia per cell robust z, rep 2: 0.974; Wolbachia per cell robust z, rep 3: -0.45

Which result is listed for Arp3 [DRSC09669]?
Wolbachia per cell robust z, rep 1: -4.52 (active); Wolbachia per cell robust z, rep 2: 0.307; Wolbachia per cell robust z, rep 3: -7.78

How did the screen score Arp3 [DRSC29666]?
Wolbachia per cell robust z, rep 1: 0.247; Wolbachia per cell robust z, rep 2: 0.363; Wolbachia per cell robust z, rep 3: -0.387

Active calls, among the entries above:
CG30389 [DRSC04077] — Wolbachia per cell robust z, rep 1: -1.73 (active); Wolbachia per cell robust z, rep 2: -0.12; Wolbachia per cell robust z, rep 3: -5.76
Arp3 [DRSC09669] — Wolbachia per cell robust z, rep 1: -4.52 (active); Wolbachia per cell robust z, rep 2: 0.307; Wolbachia per cell robust z, rep 3: -7.78

Further entries follow:
What did the screen give for CG8646 [DRSC07230]?
Wolbachia per cell robust z, rep 1: -0.241; Wolbachia per cell robust z, rep 2: 0.373; Wolbachia per cell robust z, rep 3: 0.0563

With hbt [DRSC02549], what does the deposit list?
Wolbachia per cell robust z, rep 1: 0.474; Wolbachia per cell robust z, rep 2: -0.304; Wolbachia per cell robust z, rep 3: 0.347

How did the screen score hbt [DRSC25187]?
Wolbachia per cell robust z, rep 1: -0.458; Wolbachia per cell robust z, rep 2: 0.0124; Wolbachia per cell robust z, rep 3: 0.322

What did the screen give for CG9961 [DRSC23343]?
Wolbachia per cell robust z, rep 1: -4.12 (active); Wolbachia per cell robust z, rep 2: -7.04; Wolbachia per cell robust z, rep 3: -1.3

For CG9961 [DRSC25842], what does the deposit list?
Wolbachia per cell robust z, rep 1: 0.538; Wolbachia per cell robust z, rep 2: 0.464; Wolbachia per cell robust z, rep 3: -0.0452

What is on record for CG9961 [DRSC41582]?
Wolbachia per cell robust z, rep 1: -0.0112; Wolbachia per cell robust z, rep 2: -1.42; Wolbachia per cell robust z, rep 3: -0.537

What did the screen give for DCP2 [DRSC10597]?
Wolbachia per cell robust z, rep 1: 0.278; Wolbachia per cell robust z, rep 2: -0.0428; Wolbachia per cell robust z, rep 3: 0.354

What did the screen give for Vml [DRSC17695]?
Wolbachia per cell robust z, rep 1: 0.465; Wolbachia per cell robust z, rep 2: 0.274; Wolbachia per cell robust z, rep 3: -0.471

With Vml [DRSC18529], what was measured?
Wolbachia per cell robust z, rep 1: 0.209; Wolbachia per cell robust z, rep 2: 0.912; Wolbachia per cell robust z, rep 3: 0.815

Which result is listed for Vml [DRSC28030]?
Wolbachia per cell robust z, rep 1: -0.818; Wolbachia per cell robust z, rep 2: -0.707; Wolbachia per cell robust z, rep 3: -0.0462

How did the screen score Vml [DRSC29208]?
Wolbachia per cell robust z, rep 1: 1.22; Wolbachia per cell robust z, rep 2: 1.1; Wolbachia per cell robust z, rep 3: 1.28

What did the screen give for RpS5b [DRSC16173]?
Wolbachia per cell robust z, rep 1: -0.586; Wolbachia per cell robust z, rep 2: -0.353; Wolbachia per cell robust z, rep 3: 0.843

How did the screen score Cdc7 [DRSC18429]?
Wolbachia per cell robust z, rep 1: 0.0495; Wolbachia per cell robust z, rep 2: -0.388; Wolbachia per cell robust z, rep 3: -3.41

With Cdc7 [DRSC27819], how do the results read?
Wolbachia per cell robust z, rep 1: -0.372; Wolbachia per cell robust z, rep 2: 1.18; Wolbachia per cell robust z, rep 3: 1

For Coq5 [DRSC19849], how do the results read?
Wolbachia per cell robust z, rep 1: -2.18 (active); Wolbachia per cell robust z, rep 2: -7.15; Wolbachia per cell robust z, rep 3: 0.488

With Coq5 [DRSC21371], what was measured?
Wolbachia per cell robust z, rep 1: -1.03; Wolbachia per cell robust z, rep 2: -0.0902; Wolbachia per cell robust z, rep 3: -1.02

What is on record for Coq5 [DRSC29685]?
Wolbachia per cell robust z, rep 1: 0.0934; Wolbachia per cell robust z, rep 2: 0.84; Wolbachia per cell robust z, rep 3: -0.699
